Measured values from several laboratories, pooled; numbers as filed in NIAID ChemDB.

All rows: tests in culture; agent: Candida glabrata

A number after MIC or MFC names an inhibition level or a share of isolates. Blank or dashed fields: not listed here. Rows are shuffled and stem from different studies. ECn: concentration that inhibits the pathogen or its effect by n%.

CCOC(=O)C1C(=O)C=C(c2ccc(OC)cc2)CC1c1ccc(C2CC(c3ccc(OC)cc3)=CC(=O)C2C(=O)OCC)cc1 ; endpoint: MIC ; strain or isolate: Clinical isolate ; value: 6.25 µg/mL
CCCCCCCCCCCC(=O)NCCCCN ; method: broth dilution ; endpoint: MIC ; strain or isolate: ATCC 90030 ; value: 32 µg/mL
NC(=O)N/N=C/c1ccsc1 ; method: turbidity / absorbance ; endpoint: MIC80 ; strain or isolate: LMA 1085 ; value: >250 µg/mL
Cc1ccc(N2C(=O)CC(C)C2=O)cc1 ; method: broth dilution / turbidity ; endpoint: MIC ; strain or isolate: CCC 115-2000 ; value: 125 µg/mL
O=C(CCn1ccnc1)c1ccc(Cl)cc1 ; method: broth dilution ; endpoint: MIC ; strain or isolate: RTCC 1040 ; value: >64 µg/mL
CN(C)c1ccc(/C=N/NC(=O)c2ccc(CNc3nc4ccccc4[nH]3)cc2)cc1 ; method: broth dilution ; endpoint: MIC ; strain or isolate: ATCC 36583 ; value: 100 µg/mL
CC1C(=O)N(Cc2ccccc2)C(=O)C1C ; method: broth dilution / turbidity ; endpoint: MIC ; strain or isolate: CCC 115-2000 ; value: 125 µg/mL
CC(=O)[C@]1(O)Cc2c(O)c3c(c(O)c2[C@@H](O[C@H]2C[C@H](N)[C@H](O)[C@H](C)O2)C1)C(=O)c1ccccc1C3=O ; endpoint: MIC ; strain or isolate: ATCC 90030 ; value: 3.63 µM
O=C(c1ccccc1)C(c1ccccc1)n1cnc2ccccc21 ; method: broth dilution ; endpoint: MFC ; value: 256 µg/mL
CC1C(=O)N(CCc2ccccc2)C(=O)C1C ; method: broth dilution / turbidity ; endpoint: MIC ; strain or isolate: CCC 115-2000 ; value: 125 µg/mL
O=C(N/N=C/c1ccc(O)cc1)c1ccc(CNc2nc3ccccc3[nH]2)cc1 ; method: broth dilution ; endpoint: MIC ; strain or isolate: ATCC 36583 ; value: 100 µg/mL
CC[C@@H]([C@H](C)O)n1ncn(-c2ccc(N3CCN(c4ccc(OC[C@@H]5CO[C@@](Cn6cncn6)(c6ccc(F)cc6F)C5)cc4)CC3)cc2)c1=O ; method: broth dilution ; setting: pH 7 ; endpoint: EC90 ; strain or isolate: 40 isolates ; value: 0.5 µg/mL
O=C(/C=C/c1c(Cl)cccc1Cl)c1c[nH]c2ccccc12 ; method: broth dilution ; endpoint: MIC ; strain or isolate: ATCC 36583 ; value: 200 µg/mL
CC(C)S(=O)(=O)N1CCN(c2cnn(-c3cc(F)cc(F)c3)c(=O)c2OC2CCC(F)C2)CC1 ; method: broth dilution ; endpoint: MIC ; strain or isolate: C454 ; value: 0.1 µg/mL
CCC(C)CC(C)CCCCCCCCC(=O)N[C@H]1C[C@@H](O)[C@H](NCCN)NC(=O)[C@@H]2[C@@H](O)CCN2C(=O)[C@H]([C@H](O)CCN)NC(=O)[C@H]([C@H](O)[C@@H](O)c2ccc(O)cc2)NC(=O)[C@@H]2C[C@@H](O)CN2C(=O)[C@H]([C@@H](C)O)NC1=O ; method: broth dilution ; setting: pH 5 ; endpoint: EC90 ; strain or isolate: 40 isolates ; value: 0.5 µg/mL
O=C(CCn1ccnc1)c1ccc(-c2ccccc2)cc1 ; method: broth dilution ; endpoint: MIC ; strain or isolate: RTCC 1054 ; value: 32 µg/mL
NC(=O)N/N=C/c1ccsc1.NC(=O)N/N=C/c1ccsc1.[Br][Ni][Br] ; method: turbidity / absorbance ; endpoint: MIC80 ; strain or isolate: LMA 1085 ; value: 125 µg/mL
Clc1ccc(C(c2ccccc2)N2CCN(CCn3ccnc3)CC2)cc1 ; method: agar ; endpoint: MIC90 ; value: >256 µg/mL
CC(=O)N1CCN(c2ccc(OC[C@H]3CO[C@](Cn4ccnc4)(c4ccc(Cl)cc4Cl)O3)cc2)CC1 ; method: broth dilution ; endpoint: MIC ; strain or isolate: ATCC 36583 ; value: 50 µg/mL
CCC(C)n1ncn(-c2ccc(N3CCN(c4ccc(OC[C@H]5CO[C@](Cn6cncn6)(c6ccc(Cl)cc6Cl)O5)cc4)CC3)cc2)c1=O ; endpoint: MIC ; strain or isolate: Clinical isolates ; value: 10.4 µg/mL
C=CCc1ccc(OC)c(OC)c1 ; method: turbidity ; endpoint: MIC90 ; strain or isolate: 2965 ; value: 340 µg/mL
O=C(CCn1ccnc1)c1ccc2ccccc2c1 ; method: broth dilution ; endpoint: MIC ; strain or isolate: RTCC 1040 ; value: 64 µg/mL
Cc1ccc(N2N=C(c3c[nH]c4ccccc34)CC2c2cc(Cl)ccc2Cl)cc1 ; method: broth dilution ; endpoint: MIC ; strain or isolate: ATCC 36583 ; value: 100 µg/mL
CCOc1ccc(/C=N/NC(=O)c2ccc(CNc3nc4ccccc4[nH]3)cc2)cc1 ; method: broth dilution ; endpoint: MIC ; strain or isolate: ATCC 36583 ; value: 100 µg/mL
CCCCCCCC/C=C\CCCCCCCC(=O)N[C@H](C(=O)N1C[C@H](C)C[C@H]1C(=O)N[C@H](C(=O)N[C@@H](CCO)C(=O)N[C@@H](C)C=O)C(C)C)[C@@H](C)O ; method: broth dilution / visual reading ; endpoint: MIC ; strain or isolate: ATCC 90030 ; value: 2 µg/mL
COc1cccc2c1C(=O)c1c(O)c3c(c(O)c1C2=O)C[C@@](O)(C(C)=O)C[C@@H]3O[C@H]1C[C@H](N)[C@H](O)[C@H](C)O1 ; endpoint: MIC ; strain or isolate: ATCC 90030 ; value: >100 µM
O=C(N/N=C/c1ccccc1)c1ccc(CNc2nc3ccccc3[nH]2)cc1 ; method: broth dilution ; endpoint: MIC ; strain or isolate: ATCC 36583 ; value: 50 µg/mL
CCOC(=O)C1C(=O)C=C(c2ccccc2)CC1c1ccc(C2CC(c3ccccc3)=CC(=O)C2C(=O)OCC)cc1 ; endpoint: MIC ; strain or isolate: Clinical isolate ; value: 200 µg/mL
O=C(CCn1ccnc1)c1cccc(C(O)c2ccc(Cl)cc2)c1 ; method: broth dilution ; endpoint: MIC ; strain or isolate: RTCC 1040 ; value: 32 µg/mL
COC(=O)[C@H]1[C@@H]2C[C@@H](O[C@@H]3O[C@H](C)[C@@H](O)[C@H](N)[C@@H]3O)/C=C/C=C/C=C/C=C/C=C/C=C/C=C/[C@H](C)[C@@H](O)[C@H](C)[C@H](C)OC(=O)C[C@H](O)C[C@H](O)[C@@H](O)CC[C@H](O)C[C@H](O)C[C@](O)(C[C@@H]1O)O2 ; method: broth dilution ; setting: pH 5 ; endpoint: MIC ; strain or isolate: 40 isolates ; value: 0.25 µg/mL
O=C(N/N=C/c1ccc(Cl)cc1)c1ccc(CNc2nc3ccccc3[nH]2)cc1 ; method: broth dilution ; endpoint: MIC ; strain or isolate: ATCC 36583 ; value: 50 µg/mL
OC(CCn1ccnc1)c1cccc(C(O)c2ccc(Cl)c(Cl)c2)c1 ; method: broth dilution ; endpoint: MIC ; strain or isolate: RTCC 1054 ; value: 64 µg/mL
Clc1ccccc1C(c1ccccc1)(c1ccccc1)n1ccnc1 ; method: broth dilution ; setting: pH 4 ; endpoint: MIC ; strain or isolate: 40 isolates ; value: 16 µg/mL
N=c1oc2ccccc2c2csc(N)c12 ; method: broth dilution ; endpoint: MIC ; strain or isolate: IP35 ; value: 8 µg/mL
Clc1ccc(C(c2ccccc2)n2cnc3ccccc32)cc1 ; method: broth dilution ; endpoint: MFC ; value: >256 µg/mL
CC[C@@]1(O)C(=O)OCc2c1cc1n(c2=O)Cc2cc3c(CN(C)C)c(O)ccc3nc2-1 ; endpoint: MIC ; strain or isolate: ATCC 90030 ; value: >100 µM
Clc1ccc(C(c2ccccc2)n2ccnc2)cc1 ; method: agar ; endpoint: MIC90 ; value: 0.5 µg/mL
C[C@@H](N1CCc2nc(-c3ccsc3)sc2C1)[C@](O)(C[n+]1cnc[nH]1)c1ccc(F)cc1F ; endpoint: MIC ; strain or isolate: 537 ; value: 0.5 µg/mL
CCOC(=O)C1C(=O)C=C(c2ccc(Br)cc2)CC1c1ccc(C2CC(c3ccc(Br)cc3)=CC(=O)C2C(=O)OCC)cc1 ; endpoint: MIC ; strain or isolate: Clinical isolate ; value: 25 µg/mL
O=c1c(OC2CCCC2)c(N2CCN(S(=O)(=O)NCc3ccccc3)CC2)cnn1-c1cccc(Cl)c1 ; method: broth dilution ; endpoint: MIC ; strain or isolate: C110 ; value: 1 µg/mL
CCCCCCCCCCCCCCCC(=O)NC(CCCCN)C(=O)NC(CCCCN)C(N)=O ; method: broth dilution ; endpoint: MIC ; strain or isolate: 4812 ; value: 4 µg/mL
O=C(CCn1ccnc1)c1cccc(C(O)c2ccc(Cl)c(Cl)c2)c1 ; method: broth dilution ; endpoint: MIC ; strain or isolate: RTCC 1054 ; value: 16 µg/mL
Cc1ccc(N2N=C(c3c[nH]c4ccccc34)CC2c2cccc(Cl)c2Cl)cc1 ; method: broth dilution ; endpoint: MIC ; strain or isolate: ATCC 36583 ; value: 200 µg/mL
Cc1ccc(C(O)c2cccc(C(O)CCn3ccnc3)c2)cc1 ; method: broth dilution ; endpoint: MIC ; strain or isolate: RTCC 1054 ; value: >64 µg/mL
Cc1ccc(/C=N/Nc2ccnc3cc(Cl)ccc23)cc1 ; endpoint: MIC ; value: 40 µg/mL

For reference, 4 entries again:

smiles | method | setting | endpoint | strain or isolate | value
O=C(CCn1ccnc1)c1ccc2ccccc2c1 | broth dilution |  | MIC | RTCC 1040 | 64 µg/mL
CCCCCCCCCCCC(=O)NCCCCN | broth dilution |  | MIC | ATCC 90030 | 32 µg/mL
O=C(CCn1ccnc1)c1ccc(Cl)cc1 | broth dilution |  | MIC | RTCC 1040 | >64 µg/mL
COc1cccc2c1C(=O)c1c(O)c3c(c(O)c1C2=O)C[C@@](O)(C(C)=O)C[C@@H]3O[C@H]1C[C@H](N)[C@H](O)[C@H](C)O1 |  |  | MIC | ATCC 90030 | >100 µM